Compound potency records, mixed from different reports. Data source: NIAID ChemDB in PubChem.

Common to all: tests in culture; agent: HIV-1

An empty or dashed field is not shown. ECn is the concentration giving n% inhibition of infection, replication or growth. Lines come from different laboratories, so protocols vary.

| SMILES | strain | setting | method | changes | endpoint | cell line | result |
|---|---|---|---|---|---|---|---|
| Cc1cn([C@H]2C[C@H](N=[N+]=[N-])[C@@H](CO)O2)c(=O)[nH]c1=O | CLADE C | clinical isolate | cytopathic effect / XTT | - | EC50 | PBMC | 0.007 µM |
| NNC(=O)NN1C(=O)c2cc(S(=O)(=O)[O-])cc3c(N)c(S(=O)(=O)[O-])cc(c23)C1=O | LAV | - | RT activity | - | EC50 | - | >1760 µM |
| CC(C)(C)NC(=O)[C@@H]1C[C@@H]2CCCC[C@@H]2CN1C[C@@H](O)[C@H](Cc1ccccc1)NC(=O)[C@H](CC(N)=O)NC(=O)c1ccc2ccccc2n1 | NL4-3 B | - | cytopathic effect / MTT | - | EC50 | MT-4 | 0.012 µM |
| Cc1cc(C#N)cc(C)c1Oc1ncc(NC(=O)C(F)(F)F)c(Nc2ccc(C#N)cc2)n1 | RES056 | - | MTT | - | EC50 | MT-4 | 5.06 µM |
| O=C(Nc1cnccn1)c1cccc(CN2C(=O)N(Cc3cccc(C(=O)Nc4cnccn4)c3)[C@H](Cc3ccccc3)[C@H](O)[C@@H](O)[C@H]2Cc2ccccc2)c1 | RF | - | - | - | EC50 | MT-2 | <0.0035 µM |
| Cc1cc(/C=C/C#N)cc(C)c1Oc1ccnc(S(=O)(=O)CC(=O)Nc2ccc(F)cc2)n1 | RES056 | - | MTT | - | EC50 | MT-4 | 0.44 µM |
| Cc1ccc(NC(=O)c2cccc(CN3C(=O)N(Cc4cccc(C(=O)Nc5ccc(C)cn5)c4)[C@H](Cc4ccccc4)[C@H](O)[C@@H](O)[C@H]3Cc3ccccc3)c2)nc1 | RF | - | - | - | EC50 | MT-2 | <0.0031 µM |
| COc1ccccc1C(=O)CC1(O)C(=O)Nc2ccc(Cl)cc21 | IIIB | - | cytopathic effect / syncytia | - | EC50 | C8166 | 0.09 µM |
| Cc1cc(Br)cc(C)c1Oc1ncc(N)c(Nc2ccc(C#N)cc2)n1 | RES056 | - | MTT | - | EC50 | MT-4 | 4.89 µM |
| COc1cc(CN2C(=O)N(Cc3cccc(C(=O)Nc4cccc(C)n4)c3)[C@H](Cc3ccccc3)[C@H](O)[C@@H](O)[C@H]2Cc2ccccc2)cc(OC)c1 | RF | - | - | - | EC50 | MT-2 | <0.2817 µM |
| CN1N=C(N)c2cn([C@@H]3O[C@H](COP(=O)(O)O)[C@@H](O)[C@H]3O)c3ncnc1c23 | IIIB | - | XTT | - | EC50 | CEM + CEM-SS | 0.02 µM |
| O=C(CC1(O)C(=O)Nc2ccc(Cl)cc21)c1ccccc1 | IIIB | - | cytopathic effect / syncytia | - | EC50 | C8166 | 8.45 µM |
| Nc1c(S(=O)(=O)[O-])cc2c3c(cc(S(=O)(=O)[O-])cc13)C(=O)N(NC(=O)N/N=C\c1cccc(C=O)c1)C2=O.[Na+].[Na+] | LAV | - | trypan blue | - | EC50 | PBMC | 22.8 µM |
| CC(C)(C)NC(=O)c1cccc(CN2C(=O)N(Cc3cccc(N)c3)[C@H](Cc3ccccc3)[C@H](O)[C@@H](O)[C@H]2Cc2ccccc2)c1 | RF | - | - | - | EC50 | MT-2 | <0.1144 µM |
| Cc1ccc(C(=O)Nc2ccc(S(=O)(=O)O)c3cc(S(=O)(=O)O)cc(S(=O)(=O)O)c23)cc1NC(=O)c1cccc(NC(=O)Nc2cccc(C(=O)Nc3cc(C(=O)Nc4ccc(S(=O)(=O)O)c5cc(S(=O)(=O)O)cc(S(=O)(=O)O)c45)ccc3C)c2)c1 | LAV | - | RT activity | - | EC90 | - | 652 µM |
| Nc1ccn([C@@H]2CC[C@H](CO)O2)c(=O)n1 | IIIB | - | - | - | EC50 | MT-4 | 3.6 µM |
| Cc1c(Sc2ccccc2)n(COCCO)c(=O)[nH]c1=O | HE | clinical isolate | antigen | - | EC50 | MT-4 | 16 µM |
| N#Cc1ccc(Nc2nc(Oc3c(Br)cc(Br)cc3Br)ncc2N)cc1 | RES056 | - | MTT | - | EC50 | MT-4 | 4.92 µM |
| COc1ccccc1C(=O)CC1(O)C(=O)Nc2ccccc21 | IIIB | - | cytopathic effect / syncytia | - | EC50 | C8166 | 41.29 µM |
| CC(C)c1nc(CN(C)C(=O)N[C@H](C(=O)N[C@@H](Cc2ccccc2)C[C@H](O)[C@H](Cc2ccccc2)NC(=O)OCc2cncs2)C(C)C)cs1 | NL4-3 PR S12T I15V I19L M36I R41K H69K L89M CLONE 5( C ) | - | cytopathic effect / MTT | - | EC50 | MT-4 | 0.0462 µM |
| O=C(CC1(O)C(=O)Nc2ccc(Cl)cc21)c1cccc(Br)c1 | IIIB | - | cytopathic effect / syncytia | - | EC50 | C8166 | 25.87 µM |
| Cc1cc(C#N)cc(C)c1Oc1nc(Nc2ccc(C#N)cc2)nc(N)c1Br | IIIB | - | MTT | Y181C | EC50 | MT-4 | 0.012 µM |
| c1cc(CCNCCN2CCCC2)ccc1CCNCCN1CCCC1 | NL4-3 | - | MTT | - | EC50 | MT-4 | 0.51 µg/mL |
| O=C(CC1(O)C(=O)Nc2ccc(Br)cc21)c1ccccc1 | - | - | p24 / ELISA | K103N | EC50 | C8166 | 132 µM |
| CCn1nc(Cc2ccccc2)cc1C1CCN(C[C@H]2CN([C@H](CC(C)C)C(=O)O)C[C@@H]2c2ccccc2)CC1 | BaL | - | p24 | - | EC50 | PBMC | <0.125 µM |
| COc1ccccc1C(=O)CC1(O)C(=O)Nc2ccc(Br)cc21 | IIIB | - | cytopathic effect / syncytia | - | EC50 | C8166 | 0.19 µM |
| Nc1nc(=O)n([C@@H]2CC[C@H](CO)O2)cc1F | 74V (RT-L74V) | - | - | RT-L74V | EC50 | HT4 + HT4 LacZ-1 | 0.8 µM |
| COc1cc(CN2C(=O)N(Cc3cccc(C(=O)Nc4ccccn4)c3)[C@H](Cc3ccccc3)[C@H](O)[C@@H](O)[C@H]2Cc2ccccc2)cc(OC)c1 | RF | - | - | - | EC50 | MT-2 | <0.1293 µM |
| CC(=O)Nc1cnc(Oc2c(C)cc(Br)cc2C)nc1Nc1ccc(C#N)cc1 | RES056 | - | MTT | - | EC50 | MT-4 | >147.6 µM |
| Cc1cn([C@H]2C[C@H](N=[N+]=[N-])[C@@H](CO)O2)c(=O)[nH]c1=O | IIIB | - | cytopathic effect / syncytia | - | EC50 | C8166 | 0.0071 µM |
| Cc1cc(-c2ccc(C#N)cc2)cc(C)c1Oc1ccnc(S(=O)(=O)CC(=O)Nc2ccc(C#N)cc2)n1 | IIIB | - | MTT | Y181C | EC50 | MT-4 | 0.026 µM |
| O=C(CC1(O)C(=O)Nc2ccc(Br)cc21)c1ccccc1Cl | IIIB | - | cytopathic effect / syncytia | - | EC50 | C8166 | 10.79 µM |
| CCn1nc(Cc2ccccc2)cc1C1CCN(C[C@H]2CN([C@@](C)(C(=O)O)C(C)C)C[C@@H]2c2cccc(F)c2)CC1 | BaL | - | β-galactosidase | - | EC90 | HeLa | 0.3 µM |